PubChem BioAssay AID504761 – Drosophila RNAi Screening Center – 2011
The screen tested about 22,000 reagents; below is an unselected part of those that have a named target and a result. Over the whole deposit, 116 (0.52%) are marked active. 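Calls depend on retest data that are not deposited; infection was ranked per plate without normalising between plates; the unit of the infection score is not given.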 The raw values are shown without normalisation. Unmarked entries are inactive. The numbers tell different reagents against one gene apart. Reagent sequences are not shown. Not stated in the record: the amount of reagent, the time to read-out.

- Screen: 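Fly genes whose silencing reduces dengue virus type 2 infection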 (primary screen)
- Cell system: D.Mel-2 cells from Drosophila
- Reagent: long dsRNA against Drosophila genes
- Treatment: infection with dengue virus type 2; dose and infection time not stated
- Detection: 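Cells stained for dengue envelope protein and imaged; percent of infected cells per well on duplicate plates, ranked by infection, with stained nuclei counted for cell number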
- Scale: infection score: higher = more virus-infected cells; cell count: higher = more cells in the well
- Hit rule: 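Low infection ranks in the two replicates (chance level up to 0.065) followed by a retest with a 1.5-fold or larger significant decrease, p below 0.05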
- Meaning of the calls: active = confirmed: knock-down lowers infection; inactive = not picked or not confirmed

{"Gene":"CG17982","dsRNA no.":1,"infection score, replicate 1":2.38,"infection score, replicate 2":1.66,"cell count, replicate 1":6652,"cell count, replicate 2":6368}
{"Gene":"Ugalt (UDP-galactose transporter)","dsRNA no.":1,"infection score, replicate 1":4.74,"infection score, replicate 2":1.7,"cell count, replicate 1":6176,"cell count, replicate 2":941}
{"Gene":"spz3 (spatzle 3)","dsRNA no.":1,"infection score, replicate 1":2.8,"infection score, replicate 2":5.74,"cell count, replicate 1":6687,"cell count, replicate 2":6205}
{"Gene":"spz3 (spatzle 3)","dsRNA no.":2,"infection score, replicate 1":5.18,"infection score, replicate 2":11,"cell count, replicate 1":6137,"cell count, replicate 2":5836}
{"Gene":"CG6833","dsRNA no.":1,"infection score, replicate 1":4.82,"infection score, replicate 2":4.28,"cell count, replicate 1":6515,"cell count, replicate 2":6518}
{"Gene":"CG6833","dsRNA no.":2,"infection score, replicate 1":9.34,"infection score, replicate 2":9.98,"cell count, replicate 1":6276,"cell count, replicate 2":4481}
{"Gene":"CG6283","dsRNA no.":1,"infection score, replicate 1":0.77,"infection score, replicate 2":4.56,"cell count, replicate 1":6486,"cell count, replicate 2":746}
{"Gene":"CG6283","dsRNA no.":2,"infection score, replicate 1":17.7,"infection score, replicate 2":11.3,"cell count, replicate 1":5963,"cell count, replicate 2":6315}
{"Gene":"Klp61F (Kinesin-like protein at 61F)","dsRNA no.":1,"infection score, replicate 1":18.2,"infection score, replicate 2":8.99,"cell count, replicate 1":411,"cell count, replicate 2":345}
{"Gene":"Klp61F (Kinesin-like protein at 61F)","dsRNA no.":2,"infection score, replicate 1":7.17,"infection score, replicate 2":17.8,"cell count, replicate 1":237,"cell count, replicate 2":332}
{"Gene":"CNT2 (Concentrative nucleoside transporter 2)","dsRNA no.":1,"infection score, replicate 1":15.1,"infection score, replicate 2":1.7,"cell count, replicate 1":6357,"cell count, replicate 2":6991}
{"Gene":"He (Hemese)","dsRNA no.":1,"infection score, replicate 2":14.2,"cell count, replicate 1":409,"cell count, replicate 2":3245}
{"Gene":"Corp (Companion of reaper)","dsRNA no.":1,"infection score, replicate 1":3.54,"infection score, replicate 2":1.63,"cell count, replicate 1":6179,"cell count, replicate 2":6439}
{"Gene":"Corp (Companion of reaper)","dsRNA no.":2,"infection score, replicate 1":1.87,"infection score, replicate 2":11,"cell count, replicate 1":5978,"cell count, replicate 2":6180}
{"Gene":"Jhbp5 (Juvenile hormone binding protein 5)","dsRNA no.":1,"infection score, replicate 1":5.25,"infection score, replicate 2":6.65,"cell count, replicate 1":6475,"cell count, replicate 2":6447}
{"Gene":"CG30082","dsRNA no.":1,"infection score, replicate 1":4.01,"infection score, replicate 2":1.48,"cell count, replicate 1":6686,"cell count, replicate 2":6692}
{"Gene":"Sox102F","dsRNA no.":1,"infection score, replicate 1":2.48,"infection score, replicate 2":0.9,"cell count, replicate 1":6456,"cell count, replicate 2":6474}
{"Gene":"Sox102F","dsRNA no.":2,"infection score, replicate 1":1.15,"infection score, replicate 2":2.6,"cell count, replicate 1":6287,"cell count, replicate 2":6421}
{"Gene":"Cul2 (Cullin 2)","dsRNA no.":1,"infection score, replicate 1":17.8,"infection score, replicate 2":16.9,"cell count, replicate 1":6129,"cell count, replicate 2":5982}
{"Gene":"Atg17 (Autophagy-related 17)","dsRNA no.":1,"infection score, replicate 1":18.2,"infection score, replicate 2":1.55,"cell count, replicate 1":5256,"cell count, replicate 2":6370}
{"Gene":"Ppn (Papilin)","dsRNA no.":1,"infection score, replicate 1":1.92,"infection score, replicate 2":1.39,"cell count, replicate 1":6150,"cell count, replicate 2":6348}
{"Gene":"Ppn (Papilin)","dsRNA no.":2,"infection score, replicate 1":4.98,"infection score, replicate 2":31.3,"cell count, replicate 1":6747,"cell count, replicate 2":5220}

Copied from the list:
Under “cell count, replicate 1”, Ppn (Papilin) #1 has 6150
Ugalt (UDP-galactose transporter), infection score, replicate 2 = 1.7
CG6283 #1, cell count, replicate 1: 6486
